Results deposited as PubChem BioAssay AID1259414 (Drosophila RNAi Screening Center, 2018)
In all, the deposit lists about 24,000 reagents; below is an unselected part of those that have a named target and a result. Over the whole deposit, about 1,210 (5%) are marked active. 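Inactive calls also include excluded dsRNAs with several or no targets, genes unexpressed in JW18, and well A1, regardless of score.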 A number with no mark means an inactive call. Names joined by + are all predicted targets of the reagent.

Purpose: 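Host factors increasing or decreasing Wolbachia levels in cultured fly cells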 (primary screen)
Cell system: Drosophila JW18 cells infected with Wolbachia
Reagents: long dsRNA against Drosophila genes, 0.25 µg dsRNA per well of a 384-well plate
Timing: 5 days
Conditions: cells persistently infected with Wolbachia before knock-down; no added drug
Measurement: 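Automated imaging of bacterial rRNA staining divided by host cell count, reported as plate-normalised robust z-score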
Direction: Wolbachia per cell robust z: higher = more Wolbachia per host cell than the plate typical
Call rule: 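Hit when robust z is 1.5 or more, or -1.5 or less, in at least two of three replicates; excludes dsRNAs with several or no targets, genes not expressed in JW18 and well A1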

After knock-down of CG17715 [DRSC11950] the results were Wolbachia per cell robust z, rep 1 = -0.27; Wolbachia per cell robust z, rep 2 = 0.819; Wolbachia per cell robust z, rep 3 = 0.616. CG10898 [DRSC14279] gave Wolbachia per cell robust z, rep 1 = 1.14; Wolbachia per cell robust z, rep 2 = -0.361; Wolbachia per cell robust z, rep 3 = 0.292. Knock-down of CG14042 + SP555 [DRSC02367] gave: Wolbachia per cell robust z, rep 1 = 0.554; Wolbachia per cell robust z, rep 2 = -8.02; Wolbachia per cell robust z, rep 3 = 0.681. Depletion of CARPB [DRSC18437] gave: Wolbachia per cell robust z, rep 1 = 0.58; Wolbachia per cell robust z, rep 2 = 0.426; Wolbachia per cell robust z, rep 3 = 0.257. With knock-down of CARPB [DRSC18438], the record shows Wolbachia per cell robust z, rep 1 = -1.3; Wolbachia per cell robust z, rep 2 = 0.454; Wolbachia per cell robust z, rep 3 = 0.363.

Laid out differently: 2 of the entries above.
Target gene,DRSC id,"Wolbachia per cell robust z, rep 1","Wolbachia per cell robust z, rep 2","Wolbachia per cell robust z, rep 3"
CG17715,DRSC11950,-0.27,0.819,0.616
CG10898,DRSC14279,1.14,-0.361,0.292

More reagents follow.
Knock-down of RabX6 [DRSC08223] came out at: Wolbachia per cell robust z, rep 1 = -1.36; Wolbachia per cell robust z, rep 2 = 0.385; Wolbachia per cell robust z, rep 3 = 0.432. Depletion of Paf-AHalpha [DRSC20267] gave: Wolbachia per cell robust z, rep 1 = -1.58; Wolbachia per cell robust z, rep 2 = 0.534; Wolbachia per cell robust z, rep 3 = 0.383. With knock-down of TTLL15 [DRSC15543] the results were Wolbachia per cell robust z, rep 1 = 0.666; Wolbachia per cell robust z, rep 2 = 1.02; Wolbachia per cell robust z, rep 3 = 0.939. TfIIA-L [DRSC16882] gave Wolbachia per cell robust z, rep 1 = 0.69; Wolbachia per cell robust z, rep 2 = 0.674; Wolbachia per cell robust z, rep 3 = -0.791. Depletion of CG1407 + CG12128 [DRSC06446] gave: Wolbachia per cell robust z, rep 1 = 0.0663; Wolbachia per cell robust z, rep 2 = -0.354; Wolbachia per cell robust z, rep 3 = -0.293. Knock-down of CG8526 [DRSC16438] came out at: Wolbachia per cell robust z, rep 1 = -0.37; Wolbachia per cell robust z, rep 2 = -0.776; Wolbachia per cell robust z, rep 3 = -0.862.

Depletion of CG8526 [DRSC26422] resulted in: Wolbachia per cell robust z, rep 1 = -0.76; Wolbachia per cell robust z, rep 2 = -0.301; Wolbachia per cell robust z, rep 3 = 0.262. Knock-down of tna [DRSC23236] came out at: Wolbachia per cell robust z, rep 1 = 1.5; Wolbachia per cell robust z, rep 2 = -1.42; Wolbachia per cell robust z, rep 3 = -0.227. With knock-down of tna [DRSC29530], the screen gave Wolbachia per cell robust z, rep 1 = -1.39; Wolbachia per cell robust z, rep 2 = -0.296; Wolbachia per cell robust z, rep 3 = -1.44. After knock-down of Trx2 [DRSC03622], the record shows Wolbachia per cell robust z, rep 1 = -0.606; Wolbachia per cell robust z, rep 2 = -0.0871; Wolbachia per cell robust z, rep 3 = 0.245. Knock-down of Trx2 [DRSC28288] resulted in: Wolbachia per cell robust z, rep 1 = 0.314; Wolbachia per cell robust z, rep 2 = 0.682; Wolbachia per cell robust z, rep 3 = 0.148.
